Results of unrelated studies side by side (data: NIAID ChemDB).

All rows: tests in culture; agent: Candida albicans; read-out: MIC80

Blank or dashed fields: not listed here.

smiles	strain	read by	value
C[C@H]1[C@H](O)[C@@H](C)/C=C/C=C/C=C/C=C/C=C/C=C/C=C/[C@H](O[C@@H]2O[C@H](C)[C@@H](O)[C@H](N)[C@@H]2O)C[C@@H]2O[C@](O)(C[C@@H](O)C[C@@H](O)CC[C@H](O)[C@@H](O)C[C@@H](O)CC(=O)O[C@H]1C)C[C@H](O)[C@H]2C(=O)O	TIMM1768 (azole-susceptible)	-	0.13 µg/mL
O=C(Cc1ccccc1)OC1CCN(CC(O)(Cn2cncn2)c2ccc(F)cc2F)CC1	Y0109	broth dilution	0.034 µM
Cc1ccc(-c2c3c(N)c4c(nc3nc3c2c(C)nn3-c2ccccc2)CCC4)cc1	CCC 128	broth dilution / absorbance	62.5 µg/mL
CCC(=O)OC1CCN(CC(O)(Cn2cncn2)c2ccc(F)cc2F)CC1	Y0109	broth dilution	0.159 µM
C[C@@H](N1CCN(Cc2cn(Cc3ccc(F)cc3F)c3cc(N=[N+]=[N-])ccc23)CC1)[C@](O)(Cn1cncn1)c1ccc(F)cc1F	ATCC MYA-1003	resazurin	>128 µg/mL
C[C@@H](c1ncncc1F)[C@](O)(Cn1cncn1)c1ccc(F)cc1F	JL2052 (FLU-R)	-	0.5 µg/mL
CCCCCCCCCCCCC(=O)OC1CCN(CC(O)(Cn2cncn2)c2ccc(F)cc2F)CC1	Y0109	broth dilution	0.48 µM
C[C@@H](N1CCN(Cc2cn(-c3ccc(F)cc3)c3ccccc23)CC1)[C@](O)(Cn1cncn1)c1ccc(F)cc1F	ATCC MYA-1003	resazurin	4 µg/mL
OC(CN1CCN(c2ccc(OCc3ccncc3)cc2)CC1)(Cn1cncn1)c1ccc(F)cc1F	304362	-	2 µg/mL
C[C@@H](N1CCN(Cc2cn(Cc3cccc(C(F)(F)F)c3)c3c(F)cccc23)CC1)[C@](O)(Cn1cncn1)c1ccc(F)cc1F	ATCC 36082	resazurin	0.125 µg/mL
O=C(CCl)OC1CCN(CC(O)(Cn2cncn2)c2ccc(F)cc2F)CC1	Y0109	broth dilution	0.604 µM
C[C@@H](N1CCN(Cc2cn(Cc3ccc(Cl)cc3Cl)c3c(F)cccc23)CC1)[C@](O)(Cn1cncn1)c1ccc(F)cc1F	ATCC 36082	resazurin	0.125 µg/mL
Oc1ccc2c(c1)CCc1ccc(cc1)Oc1cc(ccc1O)CCc1cccc(O)c1-2	YEM30	broth dilution	16 µg/mL
C[C@@H](N1CCN(Cc2cn(Cc3ccc(F)cc3)c3c(F)cccc23)CC1)[C@](O)(Cn1cncn1)c1ccc(F)cc1F	ATCC MYA-1003	resazurin	16 µg/mL
Cc1ccc(-c2c3c(N)c4c(nc3nc3c2c(C)nn3-c2ccccc2)CCCCC4)cc1	CCC 127	broth dilution / absorbance	62.5 µg/mL
O=C(/C=C/c1ccc(Br)cc1)OC1CCN(CC(O)(Cn2cncn2)c2ccc(F)cc2F)CC1	Y0109	broth dilution	0.007 µM
Cc1ccc(-c2c3c(N)c4c(nc3nc3c2c(C)nn3-c2ccccc2)CCCC4)cc1	CCC 130	broth dilution / absorbance	31.2 µg/mL
C[C@@H](c1ncncc1F)[C@](O)(Cn1cncn1)c1ccc(F)cc1F	Y0109	broth dilution	0.011 µM
C[C@@H](N1CCN(Cc2cn(Cc3ccc(Cl)cc3Cl)c3ccccc23)CC1)[C@](O)(Cn1cncn1)c1ccc(F)cc1F	ATCC 36082	resazurin	0.25 µg/mL

The first 3 rows once more:

smiles,strain,read by,value
C[C@H]1[C@H](O)[C@@H](C)/C=C/C=C/C=C/C=C/C=C/C=C/C=C/[C@H](O[C@@H]2O[C@H](C)[C@@H](O)[C@H](N)[C@@H]2O)C[C@@H]2O[C@](O)(C[C@@H](O)C[C@@H](O)CC[C@H](O)[C@@H](O)C[C@@H](O)CC(=O)O[C@H]1C)C[C@H](O)[C@H]2C(=O)O,TIMM1768 (azole-susceptible),-,0.13 µg/mL
O=C(Cc1ccccc1)OC1CCN(CC(O)(Cn2cncn2)c2ccc(F)cc2F)CC1,Y0109,broth dilution,0.034 µM
Cc1ccc(-c2c3c(N)c4c(nc3nc3c2c(C)nn3-c2ccccc2)CCC4)cc1,CCC 128,broth dilution / absorbance,62.5 µg/mL

A number after MIC or MFC names an inhibition level or a share of isolates. Neighbouring rows are from separate reports.